Laboratory results reported in the supplement of paper PMC8877412.
± gives the uncertainty stated by the source. Only a part is listed here, and it is no random draw.

These compounds were tested on NCC-PMP1-C1 (assay: cell viability relative to DMSO control; higher = less growth inhibition). Details: 10 µM; 72 h.
Protocol: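 NCC-PMP1-C1 pseudomyxoma peritonei cells were seeded in 384-well plates coated with Matrigel and MEF (1e4 cells). Viability was read after 72 h by CCK-8 and expressed as % of the DMSO control, mean ± SD of duplicates.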
For `[As+3].[As+3].[O-2].[O-2].[O-2]` [Arsenic(III) oxide], the cell viability was 113 ± 20%.
